Values from PubChem BioAssay AID1259414 (Drosophila RNAi Screening Center, 2018).
The screen tested about 24,000 reagents; below is an unselected part of those that have a named target and a result. In the full data, about 1,210 (5%) got an active call. 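Inactive calls also include excluded dsRNAs with several or no targets, genes unexpressed in JW18, and well A1, regardless of score.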 Unmarked entries are inactive. The numbers tell different reagents against one gene apart. Names joined by + are all predicted targets of the reagent.

Assay: 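Fly genes that alter Wolbachia amount inside host cells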 (primary screen)
Cells: Drosophila JW18 cells infected with Wolbachia
Reagent: long dsRNA against Drosophila genes, 0.25 µg dsRNA per well of a 384-well plate
Time to read-out: 5 days
Challenge: cells persistently infected with Wolbachia before knock-down; no added drug
Measured: 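Automated imaging of bacterial rRNA staining divided by host cell count, reported as plate-normalised robust z-score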
Reading the numbers: Wolbachia per cell robust z: higher = more Wolbachia per host cell than the plate typical
Active means: 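Hit when robust z is 1.5 or more, or -1.5 or less, in at least two of three replicates; excludes dsRNAs with several or no targets, genes not expressed in JW18 and well A1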

| gene knocked down | reagent | Wolbachia per cell robust z, rep 1 | Wolbachia per cell robust z, rep 2 | Wolbachia per cell robust z, rep 3 |
| --- | --- | --- | --- | --- |
| CG5886 (GeneID 43125) | 1 | 0.486 | 0.584 | 0.105 |
| Menl-2 + Menl-1 | 1 | -3.03 | -3.46 | -1.04 |
| Menl-2 + Menl-1 | 2 | -0.482 | 0.655 | -2.08 |
| CG7248 (GeneID 39356) | 1 | 0.521 | 0.419 | 0.69 |
| Act42A (GeneID 35526) | 1 | 1.6 (active) | 2.95 | 2.8 |
| Act42A (GeneID 35526) | 2 | 0.812 | 0.497 | 0.756 |
| CG15099 (GeneID 37176) | 1 | 0.741 | -0.224 | 0.267 |
| AOX2 (GeneID 41895) | 1 | 0.0944 | 0.449 | 0.226 |
| Peritrophin-15b (GeneID 50432) | 1 | 0.182 | -0.111 | -0.538 |
| CG10597 (GeneID 32714) | 1 | -3.7 | -1.85 | -4.68 |
| CG10597 (GeneID 32714) | 2 | -10.2 | 1.14 | -0.601 |
| Tre1 (GeneID 140439) | 1 | 0.609 | 0.346 | 0.692 |
| Tre1 (GeneID 140439) | 2 | 0.834 | 2.15 | 0.739 |
| Eglp3 (GeneID 37738) | 1 | -0.899 | -2.05 | -1.22 |
| Eglp3 (GeneID 37738) | 2 | -0.303 | -0.181 | -4.93 |
| ACXB (GeneID 53427) | 1 | -0.246 | 0.169 | -4.69 |
| ACXB (GeneID 53427) | 2 | 0.188 | 0.0126 | 0.732 |
| CG3868 (GeneID 39580) | 1 | 0.422 | -1.11 | -0.103 |
| CG17600 (GeneID 33141) | 1 | 0.302 | -0.31 | -0.386 |
| CG17600 (GeneID 33141) | 2 | -0.597 | -9.66 | 0.0223 |
| CG17600 (GeneID 33141) | 3 | -0.312 | -0.289 | -6.32 |
| CtsK2 (GeneID 36973) | 1 | -0.0195 | 0.911 | 0.496 |
| CtsK2 (GeneID 36973) | 2 | -1.57 | 2.15 | 0.0834 |
| ppk6 (GeneID 37286) | 1 | 0.888 | -1.41 | 0.577 |
| ppk6 (GeneID 37286) | 2 | -0.641 | -0.826 | -0.94 |
| ppk6 (GeneID 37286) | 3 | -0.141 | -0.758 | -2.63 |
| RpL37-1 (GeneID 32446) | 1 | -0.57 | -0.111 | 0.865 |
| RpL37-1 (GeneID 32446) | 2 | 0.349 | 1.2 | 0.205 |
| Pa1 (GeneID 32079) | 1 | 1.17 | 0.369 | 0.572 |
| Pa1 (GeneID 32079) | 2 | -2.28 | 0.958 | -0.0155 |
| Mlc1 (GeneID 43323) | 1 | 0.81 | -0.0106 | 1.03 |
| Mlc1 (GeneID 43323) | 2 | -0.24 | -0.156 | 0.00262 |
| CG15262 (GeneID 34901) | 1 | 1.01 | 0.873 | 0.252 |
| CG14628 (GeneID 31057) | 1 | 0.725 | -0.272 | 0.563 |
| Lsp1beta (GeneID 33274) | 1 | -0.852 | -8.51 | 1.16 |
| Lsp1beta (GeneID 33274) | 2 | -0.0889 | -0.919 | -1.65 |
| Mnr (GeneID 33098) | 1 | -0.649 | -0.775 | -1.04 |
| Mnr (GeneID 33098) | 2 | 0.566 | -3.16 | 0.00915 |
| Mnr (GeneID 33098) | 3 | 0.804 | -6.69 | -0.46 |
| SoxN (GeneID 44275) | 1 | -3.84 | 0.56 | -0.0355 |
| SoxN (GeneID 44275) | 2 | 0.925 | -0.0684 | 0.376 |
| Saf6 (GeneID 33255) | 1 | -3.04 | 0.679 | 1.15 |
| Ser8 (GeneID 36489) | 1 | -2.75 | 0.00997 | -0.232 |
| Ser8 (GeneID 36489) | 2 | 0.156 | 0.821 | -0.0409 |
| CG33226 (GeneID 2768859) | 1 | 1.18 | 1.26 | 0.364 |
| AhcyL1 (GeneID 38342) | 1 | 1.02 | 0.773 | 0.447 |
| AhcyL1 (GeneID 38342) | 2 | -2.34 | -5.06 | -3.95 |
| aln (GeneID 2768997) | 1 | 0.184 | -3.04 | -0.493 |
| CG7201 (GeneID 38929) | 1 | -0.602 | 0.686 | 1.02 |
| CaBP1 (GeneID 34976) | 1 | -0.024 | 0.408 | -0.435 |
| CG33462 (GeneID 2768841) | 1 | -1.13 | 0.529 | -1.65 |
| spi (GeneID 35253) | 1 | 0.505 | 0.627 | 0.882 |
| spi (GeneID 35253) | 2 | -2.31 (active) | -4.01 | -0.697 |
| Fen1 (GeneID 36887) | 1 | -0.315 | 0.212 | 0.326 |
| CG13230 (GeneID 50237) | 1 | 0.344 | -4.05 | 1.17 |
| CG13230 (GeneID 50237) | 2 | 0.52 | -0.382 | -0.138 |
| CG7970 (GeneID 38205) | 1 | 0.639 | 0.0112 | 0.919 |
| CG7970 (GeneID 38205) | 2 | -0.0319 | 0.0618 | -0.637 |
| CG17230 (GeneID 41376) | 1 | 0.499 | -0.29 | 0.803 |
| CG17230 (GeneID 41376) | 2 | 0.0504 | 0.645 | 0.778 |
| CG31659 (GeneID 318875) | 1 | 0.0479 | 0.431 | -0.457 |
| CG44253 + Fatp2 | 1 | -0.224 (active) | -1.63 | -6.93 |
| CG44253 + Fatp2 | 2 | -0.321 | -0.334 | -0.582 |
| CG18301 (GeneID 34451) | 1 | -0.0493 | 0.24 | -6.92 |
| SelT (GeneID 33725) | 1 | 0.833 | -7.07 | -0.714 |
| SelT (GeneID 33725) | 2 | 0.547 | -0.102 | -0.583 |
| Rx (GeneID 37367) | 1 | -0.0602 | 0.743 | 1.01 |
| Rx (GeneID 37367) | 2 | -0.859 | -2.06 | -1.08 |
| Rx (GeneID 37367) | 3 | 0.591 | -0.0199 | 0.643 |

In a second layout: entries from further up
{"gene knocked down": "SoxN (GeneID 44275)", "reagent": 2, "Wolbachia per cell robust z, rep 1": 0.925, "Wolbachia per cell robust z, rep 2": -0.0684, "Wolbachia per cell robust z, rep 3": 0.376}
{"gene knocked down": "Saf6 (GeneID 33255)", "reagent": 1, "Wolbachia per cell robust z, rep 1": -3.04, "Wolbachia per cell robust z, rep 2": 0.679, "Wolbachia per cell robust z, rep 3": 1.15}
{"gene knocked down": "Ser8 (GeneID 36489)", "reagent": 1, "Wolbachia per cell robust z, rep 1": -2.75, "Wolbachia per cell robust z, rep 2": 0.00997, "Wolbachia per cell robust z, rep 3": -0.232}
{"gene knocked down": "Ser8 (GeneID 36489)", "reagent": 2, "Wolbachia per cell robust z, rep 1": 0.156, "Wolbachia per cell robust z, rep 2": 0.821, "Wolbachia per cell robust z, rep 3": -0.0409}
{"gene knocked down": "CG33226 (GeneID 2768859)", "reagent": 1, "Wolbachia per cell robust z, rep 1": 1.18, "Wolbachia per cell robust z, rep 2": 1.26, "Wolbachia per cell robust z, rep 3": 0.364}
